Only a part is listed here, and it is no random draw. The source made the active and inactive calls. No stated cut-off is given here; in the data, active means z-score below about -3; inactive means the rest.
The molecules below were run against Genome polyprotein (West Nile virus) (UniProt P06935) (assay: inhibitors of WNV NS2B-NS3 protease, primary screen, biochemical, fluorogenic substrate (AID 577)). Conditions: fluorogenic substrate Ex360/Em465, hits give low values.

By UniProt entry, the sequences of proteins in these tests, tags left out. Residues count along the entry.
UniProt P06935, 1371-1501 limits assumed: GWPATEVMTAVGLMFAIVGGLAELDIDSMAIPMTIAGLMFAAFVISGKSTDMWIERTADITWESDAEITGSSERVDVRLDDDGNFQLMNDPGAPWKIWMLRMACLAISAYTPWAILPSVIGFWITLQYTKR
UniProt P06935, 1502-1679 limits assumed: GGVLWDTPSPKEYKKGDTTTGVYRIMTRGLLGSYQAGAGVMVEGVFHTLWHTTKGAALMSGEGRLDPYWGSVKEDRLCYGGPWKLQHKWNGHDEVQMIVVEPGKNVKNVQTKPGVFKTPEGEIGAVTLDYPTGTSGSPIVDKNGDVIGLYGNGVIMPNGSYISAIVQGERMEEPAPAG

Row | Structure (SMILES) | z-score
1 | Cc1c2non([O-])c-2c(C)[n+](=O)[n+]1[O-] | inactive: 0.81
2 | CP(=O)(Nc1ccccn1)Oc1ccccc1 (stereo not drawn) | inactive: -0.82
3 | COc1ccccc1OP(C)(=O)Nc1ccc(C)c(C)c1 (stereo not drawn) | inactive: -0.17
4 | Cc1nc2ccc3ccccc3c2o1.O=[N+]([O-])c1cc([N+](=O)[O-])c(O)c([N+](=O)[O-])c1 | inactive: 0.04
5 | CCN(CC)CC(O)COC(=O)C(O)(c1ccccc1)C1CCCCC1 (stereo not drawn) | inactive: 0.22
6 | COc1ccccc1OP(C)(=O)Nc1c(C)n(C)n(-c2ccccc2)c1=O (stereo not drawn) | inactive: 0.32
7 | CP(=O)(Oc1ccccc1)N1CCOC1=O (stereo not drawn) | inactive: -0.72
8 | CCc1nc2c(n1)c1c(non1O)c1c2no[n+]1[O-] | inactive: -0.4
9 | O=P(Nc1nccs1)(c1ccccc1)c1ccccc1 | inactive: 0.29
10 | CCOP(C)(=S)SCC(=O)NC(C)(CC)C(=O)O (stereo not drawn) | inactive: -0.78
11 | c1nnnn1CCn1cnnn1 | inactive: 1.27
12 | CP(=O)(Nc1ccc2c(c1)OCCO2)Oc1ccccc1 (stereo not drawn) | inactive: -0.34
13 | Cc1ccccc1NP(C)(=O)Nc1ccccc1C | inactive: -0.83
14 | CN(C)CCOC(=O)C(O)(c1ccccc1)C1CCCCC1 (stereo not drawn) | inactive: 1.22
15 | O=C(OC1CN2CCC1CC2)c1cccc(Cl)c1 (stereo not drawn) | inactive: 0.96
16 | COC(=O)c1cc2c(s1)N=C(c1ccccc1)N(C)P2(=O)N1CCOCC1 (stereo not drawn) | inactive: -0.45
17 | O=P1(Nc2nc3ccc(Cl)cc3s2)COc2ccccc2O1 (stereo not drawn) | inactive: 0.16
18 | CP(=O)(Nc1ccccc1F)Oc1ccccc1 (stereo not drawn) | inactive: -1.18
19 | Cc1cccc(OCC(=O)OC2CN3CCC2CC3)c1 (stereo not drawn) | inactive: -0.01

Row | Structure (SMILES) | z-score
20 | Cc1ccc(C)c(NP(C)(=O)Oc2ccccc2)c1 (stereo not drawn) | inactive: 0.4
21 | CCOP1(=S)c2c(C)nn(CCC#N)c2N=C(c2ccccc2F)N1C (stereo not drawn) | inactive: -0.1
22 | O=P(Nc1nccs1)(c1ccccc1)c1nc2ccccc2s1 (stereo not drawn) | inactive: -0.67
23 | CCOP1(=S)c2c(C)nn(CCC#N)c2N=C(c2ccc(F)cc2)N1C (stereo not drawn) | inactive: 0.8
24 | Cc1nn(-c2ccccc2)c2c1P(=O)(N1CCOCC1)N(C)C(c1ccccc1)=N2 (stereo not drawn) | inactive: 0.67
25 | O=P1(Nc2ncccn2)COc2ccccc2OC1 | inactive: 0.79
26 | Cc1ccc(OCC(=O)OC2CN3CCC2CC3)cc1 (stereo not drawn) | inactive: -0.14
27 | O=P1(Nc2ccc(Br)cn2)COc2ccccc2OC1 | inactive: 0.42
28 | O=P1(Nc2ccccn2)COc2ccccc2OC1 | inactive: 0.29
29 | Clc1n[nH]nc1-c1nn[nH][15n]1 | inactive: -0.93
30 | Cc1nc2ccc3ccccc3c2s1.O=[N+]([O-])c1cc([N+](=O)[O-])c(O)c([N+](=O)[O-])c1 | inactive: -0.73
31 | COP1(=S)c2c(C)nn(CCC#N)c2N=C(c2ccc(F)cc2)N1C (stereo not drawn) | inactive: -0.11
32 | CP(=O)(NC(=O)Nc1ccccc1)Oc1ccccc1 (stereo not drawn) | inactive: -0.41
33 | O=C(COc1ccccc1)OC1CN2CCC1CC2 (stereo not drawn) | inactive: 1.05
34 | CCOP(C)(=S)SCC(=O)NC(C)C(=O)O (stereo not drawn) | inactive: 1.37
35 | CP(=S)(Nn1cnnc1)Oc1ccccc1 (stereo not drawn) | inactive: -1.06
36 | COc1ccccc1OP(C)(=O)Nc1ccc(C)cc1 (stereo not drawn) | inactive: 0.08
37 | Cc1ccc(NP(C)(=O)Oc2ccccc2)c(C)c1 (stereo not drawn) | inactive: -1.06
38 | O=C(OC1CN2CCC1CC2)C12CC3CC(CC(C3)C1)C2 (stereo not drawn) | inactive: -1.45

Reference: PubChem BioAssay AID577 (University of Pittsburgh Molecular Library Screening Center, 2007)
